# Measurements taken from ChEMBL document CHEMBL4373723 (J Med Chem, 2019).
# Key:
# Frizzled-7 [1] = target: T1, Frizzled-7 (Homo sapiens, UniProt O75084); experiment: Binding affinity to recombinant human Frizzled-7 (Gln33 to Leu185 residues)/human IgG1 chimeric protein expressed in CHO cells assessed as dissociation rate constant by SPR assay
# Frizzled-7 [2] = target: T1, Frizzled-7; experiment: Binding affinity to recombinant human Frizzled-7 (Gln33 to Leu185 residues)/human IgG1 chimeric protein expressed in CHO cells by SPR assay
# [3] = Stability in cell culture medium containing 10% fetal bovine serum at 200 uM at 37 degC measured after 6 hrs by LC-MS analysis; details: cattle
# [4] = Stability in mouse serum at 200 uM at 37 degC measured over 24 hrs by LC-MS analysis
# [5] = Stability in presence of DTT assessed as disulfide reduction at 20 uM measured over 40 mins at 37 degC by LC-MS analysis
# [6] = Stability in presence of 0.1 to 100 mM TCEP assessed as disulfide reduction at higher level of TCEP at 20 uM measured over 40 mins at 37 degC by LC-MS analysis
structure (smiles),measurement,setting,value
CSCC[C@H](NC(=O)[C@@H](NC(=O)[C@H](Cc1cnc[nH]1)NC(=O)[C@H](C[Se][Se]C[C@H](NC(=O)[C@H](Cc1c[nH]c2ccccc12)NC(=O)[C@H](Cc1ccccc1)NC(=O)[C@H](CCC(=O)O)NC(=O)[C@H](CC(C)C)NC(=O)[C@H](CC(=O)O)NC(=O)[C@H](CC(=O)O)NC(=O)[C@H](CO)NC(C)=O)C(=O)N[C@@H](Cc1cnc[nH]1)C(=O)N[C@H](C(=O)N[C@@H](CCSC)C(=O)N[C@@H](Cc1ccc(O)cc1)C(N)=O)C(C)C)NC(=O)[C@H](Cc1c[nH]c2ccccc12)NC(=O)[C@H](Cc1ccccc1)NC(=O)[C@H](CCC(=O)O)NC(=O)[C@H](CC(C)C)NC(=O)[C@H](CC(=O)O)NC(=O)[C@H](CC(=O)O)NC(=O)[C@H](CO)NC(C)=O)C(C)C)C(=O)N[C@@H](Cc1ccc(O)cc1)C(N)=O,Kd,Frizzled-7 [1],1 ×10⁻³ /s
same,Kd,Frizzled-7 [2],0.19 nM
same,Stability,[3],Stable
same,Stability,[4],Stable
same,Drug degradation,[5],30%
same,Stability,[6],Unstable
